Compound potency records, mixed from different reports. Data source: NIAID ChemDB in PubChem.

Shared fields: tests in culture; organism: Mycobacterium tuberculosis

Blank or dashed fields: not listed here. Percent inhibition refers to the dose given; in toxicity tests it is the harm to the cells. a–b is a range or a potency band. MIC bound comes from a single tested concentration. MIC50, MIC90 and the like: level of inhibition, or share of isolates inhibited. ECn is the concentration giving n% inhibition of infection, replication or growth. Neighbouring rows are from separate reports.

SMILES	read by	strain	mutations	read-out	dose	result
Cc1ccc2oc(=O)n(-c3ccc(C#N)cc3)c(=O)c2c1		CNCTC MY331/88		MIC		8 µM
NNC(=O)c1ccncc1		Isolate S1		MIC		0.031 µg/mL
C[C@@H]1[C@H]2C[C@@H](C[C@H]1NCCNC[C@@H]1CC[C@H]3C[C@@H]1C3(C)C)C2(C)C				MIC		3.13 µM
CCCCCCOc1ccccc1NC(=O)OCCN1CCCCC1		My 331/88		MIC		32 µM
CCOC(=O)c1ccc2c(c1)nc(-c1ccc(Br)cc1)n2CCN1CCCC1=O	resazurin / fluorescence	H37Rv		EC50		>100 µM
CO[C@H]1/C=C/O[C@@]2(C)Oc3c(C)c(O)c4c(=O)c(c5oc6cc(N7CCN(CC(C)C)CC7)cc(=O)c6nc5c4c3=C2O)NC(=O)/C(C)=C\C=C\[C@H](C)[C@H](O)[C@@H](C)[C@@H](O)[C@@H](C)[C@H](OC(C)=O)[C@@H]1C		30 isolates		MIC50		0.016 µg/mL
CO[C@H]1/C=C/O[C@@]2(C)Oc3c(C)c(O)c4c(=O)c(c5oc6cc(N7CCN(CC(C)C)CC7)cc(=O)c6nc5c4c3=C2O)NC(=O)/C(C)=C\C=C\[C@H](C)[C@H](O)[C@@H](C)[C@@H](O)[C@@H](C)[C@H](OC(C)=O)[C@@H]1C		27 (rifampicin-resistant)		MIC		1 µg/mL
CO[C@H]1/C=C/O[C@@]2(C)Oc3c(C)c(O)c4c(O)c(c5c(c4c3C2=O)NC2(CCN(CC(C)C)CC2)N=5)=NC(=O)/C(C)=C\C=C\[C@H](C)[C@H](O)[C@@H](C)[C@@H](O)[C@@H](C)[C@H](OC(C)=O)[C@@H]1C		Isolate 920492 rifampicin-resistant		MIC		16 µg/mL
COc1ccccc1CCNCCN[C@H]1C[C@H]2CC[C@]1(C)C2(C)C				MIC		50 µM
COc1ccc(-c2coc3c4c(c(CC=C(C)C)c(OC)c3c2=O)OC(C)(C)C=C4)cc1	BACTEC	H37Rv		inhibition	12.5 µg/mL	45%
CCOC(=O)c1c(NC(=O)c2c(F)c(F)c(F)c(F)c2F)sc2c1CCNC2=O	turbidity	H37Rv	gyrA mutant (D94N)	EC50		1.2 µM
CC(CNCCc1ccccc1F)NC1CCCC(C)C1C				MIC		>50 µM
CCCCCCOc1ccccc1NC(=O)OCC[NH+]1CCCC1		My 331/88		MIC		62.5 µM
CCOC(=O)c1ccc2nc(-c3cncc(-c4ccc(F)cc4)c3)[nH]c2c1	resazurin / fluorescence	H37Rv		EC50		>100 µM
CC(C)O.COc1cc(CC2COC(=O)C2(O)Cc2ccc(O)c(OC)c2)ccc1O	BACTEC	H37Rv		inhibition	12.5 µg/mL	18%
CCOC(=O)c1ccc2c(c1)nc(-c1ccc(O)c(OC)c1)n2CCN1CCCOC1	resazurin / fluorescence	H37Rv		EC50		38.08 µM
Cc1ccc(NC(=O)c2c(N)sc3c2CCCC3)cc1	resazurin	H37Rv		MIC		100 µg/mL
CC(CNCC(c1ccccc1)c1ccccc1)NCCC(c1ccccc1)c1ccccc1				MIC		50 µM
CN(CCCCC(O)CN(C)C(=S)S)C(=S)S	BACTEC	H37Rv		MIC bound		>12.5 µg/mL
OCc1ccccc1Sc1ccccc1CNCCNCCCCc1ccccc1				MIC		25 µM
CCCN1CN(C(C(=O)NC2C(=O)N3C(C(=O)O)=C(C)CSC23)c2ccccc2)CSC1=S	BACTEC	H37Rv		inhibition	12.5 µg/mL	6%
C=CCOc1cc2oc3cc(O)c(CCC(C)C)c(O)c3c(=O)c2c(CCC(C)C)c1OC	resazurin	M21		MIC		3.12 µg/mL
CCCCCCCCCOc1ccc(NC(=O)OCCN2CCCCC2)cc1		My 331/88		MIC		8 µM
Fc1ccc(CNCCN(CCc2ccccc2)Cc2ccccc2)cc1				MIC		50 µM
NNC(=O)c1ccncc1		9127		MIC		≥0.2 µg/mL
Cc1cc2c(cc1Cl)Sc1nccn1S2(=O)=O	resazurin	H37Rv		inhibition	6.25 µg/mL	-19%
COc1c(OC(=O)c2ccccc2)cc2oc3cc(O)c(CCC(C)C)c(O)c3c(=O)c2c1CCC(C)C	resazurin	H37Ra		MIC		3.12 µg/mL
CCN(Cc1cccc(S(=O)(=O)[O-])c1)c1ccc(C(=C2C=CC(=[N+](CC)Cc3cccc(S(=O)(=O)O)c3)C=C2)c2ccccc2)cc1	BACTEC	H37Rv		MIC bound		>6.25 µg/mL
CC(=O)c1c(OCC(N)=O)cc2oc3cc(O)c(CCC(C)C)c(O)c3c(=O)c2c1CCC(C)C	resazurin	H37Ra		MIC		1.56 µg/mL
CCCCCCOc1ccccc1NC(=O)OCCN1CCOCC1		My 331/88		MIC		62.5 µM
NCC[C@H](O)C(=O)N[C@@H]1C[C@H](N)[C@@H](O[C@H]2O[C@H](CN)[C@@H](O)[C@H](O)[C@H]2O)[C@H](O)[C@H]1O[C@H]1O[C@H](CO)[C@@H](O)[C@H](N)[C@H]1O	resazurin / fluorescence	H37Rv		EC90		>100 µM
COc1cc(C(C2=C(O)c3ccccc3C(=O)C2=O)C2=C(O)c3ccccc3C(=O)C2=O)cc(Br)c1O	BACTEC	H37Rv		MIC		≥12.8 µg/mL
O=c1oc2ccc([N+](=O)[O-])cc2c(=O)n1-c1cccc([N+](=O)[O-])c1		CNCTC MY331/88		MIC		62 µM
CCCCCc1cc(OC)c2ccccc2n1		MT8		MIC		6.25 µg/mL
NC(=O)c1cnccn1		Isolate H3628 (INH RIF-resistant)		MIC		>900 µg/mL
CCCCOc1cccc(NC(=O)OCCN2CCCCC2)c1		My 331/88		MIC		62.5 µM
CCOC(=O)c1ccc2nc(-c3ccccc3)[nH]c2c1	resazurin / fluorescence	H37Rv		EC50		>100 µM
COC(=O)c1cc(-c2ccco2)c2c(=O)n(-c3ccccc3)[nH]c2n1	BACTEC	H37Rv		MIC		≥12.5 µg/mL
COc1c(N2CCNC(C)C2)c(F)cc2c(=O)c(C(=O)O)cn(C3CC3)c12		Strain 370		MIC		0.25 µg/mL
N#Cc1c(NC(=O)c2c(F)c(F)c(F)c(F)c2F)sc2c1CCOC2	turbidity	H37Rv	rpoB S522L mutant	MIC		10 µM
Cc1ccc2c(c1)-c1oc(=O)c(C(N)=O)cc1C(C)O2	BACTEC	H37Rv		MIC bound		>12.5 µg/mL
CCOC(=O)c1ccc2nc(-c3ccc([N+](=O)[O-])cc3)[nH]c2c1	resazurin / fluorescence	H37Rv		MIC		>100 µM
CCCCC(CC)CN1CN(CC(CC)CCCC)CC(C)(NCCN[C@H](CC)CO)C1				MIC		25 µM
NNC(=O)c1ccncc1		Strain 34		MIC		0.125 µg/mL
NCC[C@H](O)C(=O)N[C@@H]1C[C@H](N)[C@@H](O[C@H]2O[C@H](CN)[C@@H](O)[C@H](O)[C@H]2O)[C@H](O)[C@H]1O[C@H]1O[C@H](CO)[C@@H](O)[C@H](N)[C@H]1O	broth dilution / resazurin	MDR17		MIC		1 µg/mL
CCCOc1cccc(NC(=O)OCCN2CCCCC2)c1		My 331/88		MIC		125 µM
Nc1c(C(=O)Nc2ccccc2)[n+]([O-])c2ccccc2[n+]1[O-]		TAC-R		MIC		6.3 µg/mL
CCOC(=O)c1ccc2c(c1)nc(-c1ccc(OC)cc1)n2CCN1CCCC1=O	resazurin / fluorescence	H37Rv		EC50		>100 µM
CO[C@H]1/C=C/O[C@@]2(C)Oc3c(C)c(O)c4c(O)c(c(/C=N/N5CCN(C)CC5)c(O)c4c3C2=O)NC(=O)/C(C)=C\C=C\[C@H](C)[C@H](O)[C@@H](C)[C@@H](O)[C@@H](C)[C@H](OC(C)=O)[C@@H]1C		9127		MIC		≥2 µg/mL
CC1COc2c(N3CCN(C)CC3)c(F)cc3c(=O)c(C(=O)O)cn1c23		900233		MIC		0.5 µg/mL
CCCCCCCOc1ccc(NC(=O)OCCN2CCOCC2)cc1		My 331/88		MIC		8 µM
COc1c(O)cc2c(c1O)[C@@H]1O[C@H](CO)[C@@H](O)[C@H](O)[C@H]1OC2=O	BACTEC	H37Rv		MIC		≥12.5 µg/mL
CCOC(=O)c1ccc2c(c1)nc(-c1ccc(O)cc1O)n2CCN1CCCC1=O	resazurin / fluorescence	H37Rv		EC50		>100 µM
CO/N=C1\CN(c2nc3c(cc2F)c(=O)c(C(=O)O)cn3C2CC2)CC1CN		44 isolates (resistant)		MIC50		8 µg/mL
CS(=O)(=O)CC1=NC(=N)N=C1CS(C)(=O)=O	BACTEC	H37Rv		MIC bound		>12.5 µg/mL
CCCOc1cc2oc3cc(O)c(CCC(C)C)c(O)c3c(=O)c2c(CCC(C)C)c1OC	resazurin	H37Rv		MIC		3.12 µg/mL
CCCCC(CC)CN1CN(CC(CC)CCCC)CC(C)(NCCNC2CCC(C)CC2)C1				MIC		25 µM
O=[N+]([O-])c1ccc(N/N=C/c2ccc(Cl)c(Cl)c2)nc1	BACTEC	H37Rv		MIC bound		>12.5 µg/mL
CCNC(=O)c1c(NC(=O)c2c(F)c(F)c(F)c(F)c2F)sc2c1CCN(CC)C2	turbidity	H37Rv	gyrA mutant (D94N)	MIC		9.8 µM
CCCCCCCCCOc1ccc(NC(=O)OCCN2CCOCC2)cc1		My 331/88		MIC		16 µM
CC1COc2c(N3CCN(C)CC3)c(F)cc3c(=O)c(C(=O)O)cn1c23	BACTEC	SMI 20		MIC		0.5 µg/mL
CCOC(=O)c1c(NC(=O)c2c(F)c(F)c(F)c(F)c2F)sc2c1CCOC2	turbidity	ATCC 35822		EC90		0.28 µM
CC(CNCCc1ccccc1F)NC1CCCCCCC1				MIC		50 µM
O=c1oc2ccc(F)cc2c(=O)n1-c1ccc(Cl)cc1		CNCTC MY331/88		MIC		8 µM
COc1ccc(CCC2CCc3ccccc3N2C)cc1OC		MT9		MIC		>322 µg/mL
CCCCN(CCNc1ccc(C)c2sc3cc(Cl)ccc3c(=O)c12)CC(C)O	BACTEC	H37Rv		MIC bound		>12.5 µg/mL
CCOC(=O)c1c(N)sc2c1CCCC2	resazurin	H37Rv		MIC		>200 µg/mL
C=C1C(=O)OC2CC3(C)OC3C3OC3C3=CC(OC3=O)C12	BACTEC	H37Rv		MIC bound		>12.8 µg/mL
O=c1oc2ccccc2c(=O)n1-c1ccc([N+](=O)[O-])cc1		CNCTC MY331/88		MIC		16 µM
COC(=O)C1=C2Nc3ccccc3[C@@]23CCN2C[C@]4(C[C@@H]5C[C@]67CCO[C@H]6CCN6CC[C@@]8(c9cccc(OC)c9N(C4)[C@@]58O)[C@@H]67)[C@@H]4OCC[C@]4(C1)[C@H]23	BACTEC	H37Rv		MIC bound		>12.5 µg/mL
CC(=O)c1c(OCCCCBr)cc2oc3cc(OCCCCBr)c(CCC(C)C)c(O)c3c(=O)c2c1CCC(C)C	resazurin	H37Ra		MIC		200 µg/mL
CO[C@H]1/C=C/O[C@@]2(C)Oc3c(C)c(O)c4c(O)c(c(C5SCCS5)c(O)c4c3C2=O)NC(=O)/C(C)=C\C=C\[C@H](C)[C@@H]2OC(C)(C)O[C@H]([C@@H](C)[C@H](O)[C@@H]1C)[C@@H]2C	BACTEC	H37Rv		inhibition	12.5 µg/mL	98%
NC1[C@H]2CN(c3nc4c(cc3F)c(=O)c(C(=O)O)cn4-c3ccc(F)cc3F)C[C@@H]12		206 isolates (susceptible)		MIC50		32 µg/mL
COC(=O)C1C(OC(C)=O)C(C)C(O)C(C)(O)/C=C(\C)C2=C3C(=C(C)C(=O)c4c(O)c(c(C)c(OC(C)=O)c43)NC(=O)/C(C)=C/C=C\[C@](C)(O)C(O)[C@@H](C)C1O)OCO2		ETA-R		MIC		3.1 µg/mL
CCN1CCc2c(sc(NC(=O)c3c(F)c(F)c(F)c(F)c3F)c2C(N)=O)C1	turbidity	ATCC 35822 INH-R2 isoniazid-resistant		EC50		3.7 µM
C=C[C@@]1(C)CC(=O)[C@]2(O)[C@@]3(C)[C@@H](O)CCC(C)(C)[C@@H]3[C@H](O)[C@@H](OC(C)=O)[C@@]2(C)O1	BACTEC	H37Rv		MIC bound		>12.5 µg/mL
N[C@@H]1CN(c2c(F)cc3c(=O)c(C(=O)O)cn([C@@H]4C[C@@H]4F)c3c2Cl)CC12CC2	resazurin	Clinical strain	Gyrase Asp94Asn	MIC		0.25–0.5 µg/mL
O=NN1CCN=C1c1ccc([N+](=O)[O-])cc1	BACTEC	H37Rv		MIC bound		>12.5 µg/mL
CO[C@H]1/C=C/O[C@@]2(C)Oc3c(C)c(O)c4c(O)c(c(/C=N/N5CCN(C)CC5)c(O)c4c3C2=O)NC(=O)/C(C)=C\C=C\[C@H](C)[C@H](O)[C@@H](C)[C@@H](O)[C@@H](C)[C@H](OC(C)=O)[C@@H]1C	resazurin	M16	MDR	MIC		>2 µg/mL

Repeating the final 6 entries:

{"SMILES": "COC(=O)C1C(OC(C)=O)C(C)C(O)C(C)(O)/C=C(\\C)C2=C3C(=C(C)C(=O)c4c(O)c(c(C)c(OC(C)=O)c43)NC(=O)/C(C)=C/C=C\\[C@](C)(O)C(O)[C@@H](C)C1O)OCO2", "strain": "ETA-R", "read-out": "MIC", "result": "3.1 µg/mL"}
{"SMILES": "CCN1CCc2c(sc(NC(=O)c3c(F)c(F)c(F)c(F)c3F)c2C(N)=O)C1", "read by": "turbidity", "strain": "ATCC 35822 INH-R2 isoniazid-resistant", "read-out": "EC50", "result": "3.7 µM"}
{"SMILES": "C=C[C@@]1(C)CC(=O)[C@]2(O)[C@@]3(C)[C@@H](O)CCC(C)(C)[C@@H]3[C@H](O)[C@@H](OC(C)=O)[C@@]2(C)O1", "read by": "BACTEC", "strain": "H37Rv", "read-out": "MIC bound", "result": ">12.5 µg/mL"}
{"SMILES": "N[C@@H]1CN(c2c(F)cc3c(=O)c(C(=O)O)cn([C@@H]4C[C@@H]4F)c3c2Cl)CC12CC2", "read by": "resazurin", "strain": "Clinical strain", "mutations": "Gyrase Asp94Asn", "read-out": "MIC", "result": "0.25–0.5 µg/mL"}
{"SMILES": "O=NN1CCN=C1c1ccc([N+](=O)[O-])cc1", "read by": "BACTEC", "strain": "H37Rv", "read-out": "MIC bound", "result": ">12.5 µg/mL"}
{"SMILES": "CO[C@H]1/C=C/O[C@@]2(C)Oc3c(C)c(O)c4c(O)c(c(/C=N/N5CCN(C)CC5)c(O)c4c3C2=O)NC(=O)/C(C)=C\\C=C\\[C@H](C)[C@H](O)[C@@H](C)[C@@H](O)[C@@H](C)[C@H](OC(C)=O)[C@@H]1C", "read by": "resazurin", "strain": "M16", "mutations": "MDR", "read-out": "MIC", "result": ">2 µg/mL"}